PubChem BioAssay AID1259414 – Drosophila RNAi Screening Center – 2018

- Screen: 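Fly genes that alter Wolbachia amount inside host cells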 (primary screen)
- Cells: Drosophila JW18 cells infected with Wolbachia
- Reagent: long dsRNA against Drosophila genes, 0.25 µg dsRNA per well of a 384-well plate
- Duration: 5 days
- Challenge: cells persistently infected with Wolbachia before knock-down; no added drug
- Read-out: 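Automated imaging of bacterial rRNA staining divided by host cell count, reported as plate-normalised robust z-score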
- Direction: Wolbachia per cell robust z: higher = more Wolbachia per host cell than the plate typical
- Call rule: 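Active if absolute robust z reaches 1.5 in two or more of three replicates, leaving out multi- or no-target dsRNAs, genes unexpressed in JW18 and A1 wells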
In all, the deposit lists about 24,000 reagents; below is a random part of those that have a named target and a result. Of all reagents, about 1,210 (5%) are marked active. 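Inactive calls also include excluded dsRNAs with several or no targets, genes unexpressed in JW18, and well A1, regardless of score.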 A number with no mark means an inactive call. Reagent sequences are not shown.

ND-39 (NADH dehydrogenase (ubiquinone) 39 kDa subunit) [DRSC11791] | Wolbachia per cell robust z, rep 1 = -2.15; Wolbachia per cell robust z, rep 2 = 0.232; Wolbachia per cell robust z, rep 3 = 1.2
ND-39 (NADH dehydrogenase (ubiquinone) 39 kDa subunit) [DRSC28392] | Wolbachia per cell robust z, rep 1 = 0.568; Wolbachia per cell robust z, rep 2 = -0.67; Wolbachia per cell robust z, rep 3 = -0.499
CG17230 [DRSC15203] | Wolbachia per cell robust z, rep 1 = 0.499; Wolbachia per cell robust z, rep 2 = -0.29; Wolbachia per cell robust z, rep 3 = 0.803
CG17230 [DRSC27268] | Wolbachia per cell robust z, rep 1 = 0.0504; Wolbachia per cell robust z, rep 2 = 0.645; Wolbachia per cell robust z, rep 3 = 0.778
agt (O-6-alkylguanine-DNA alkyltransferase) [DRSC12611] | Wolbachia per cell robust z, rep 1 = -0.133; Wolbachia per cell robust z, rep 2 = 0.551; Wolbachia per cell robust z, rep 3 = 0.818
RpL26 (Ribosomal protein L26) [DRSC10726] | Wolbachia per cell robust z, rep 1 = 2.74 (active); Wolbachia per cell robust z, rep 2 = 3.4; Wolbachia per cell robust z, rep 3 = 2.59
side-VIII (sidestep VIII) [DRSC05880] | Wolbachia per cell robust z, rep 1 = 0.0765; Wolbachia per cell robust z, rep 2 = 0.906; Wolbachia per cell robust z, rep 3 = 1.11
side-VIII (sidestep VIII) [DRSC05883] | Wolbachia per cell robust z, rep 1 = 0.706; Wolbachia per cell robust z, rep 2 = 1.54; Wolbachia per cell robust z, rep 3 = 1.43
side-VIII (sidestep VIII) [DRSC06157] | Wolbachia per cell robust z, rep 1 = -4.88; Wolbachia per cell robust z, rep 2 = -0.725; Wolbachia per cell robust z, rep 3 = 0.939
side-VIII (sidestep VIII) [DRSC23187] | Wolbachia per cell robust z, rep 1 = 0.455; Wolbachia per cell robust z, rep 2 = 0.315; Wolbachia per cell robust z, rep 3 = 0.908
side-VIII (sidestep VIII) [DRSC28353] | Wolbachia per cell robust z, rep 1 = -0.447; Wolbachia per cell robust z, rep 2 = 0.517; Wolbachia per cell robust z, rep 3 = 0.317
Prosbeta4R2 (Proteasome beta4 subunit-related 2) [DRSC00503] | Wolbachia per cell robust z, rep 1 = 0.7; Wolbachia per cell robust z, rep 2 = -0.543; Wolbachia per cell robust z, rep 3 = 0.0651
Prosbeta4R2 (Proteasome beta4 subunit-related 2) [DRSC28235] | Wolbachia per cell robust z, rep 1 = -0.615; Wolbachia per cell robust z, rep 2 = 0.654; Wolbachia per cell robust z, rep 3 = 0.757
Tsp42Ea (Tetraspanin 42Ea) [DRSC04982] | Wolbachia per cell robust z, rep 1 = -3.58; Wolbachia per cell robust z, rep 2 = -0.308; Wolbachia per cell robust z, rep 3 = -0.204
Tsp42Ea (Tetraspanin 42Ea) [DRSC06792] | Wolbachia per cell robust z, rep 1 = -0.494; Wolbachia per cell robust z, rep 2 = -1.81; Wolbachia per cell robust z, rep 3 = -0.871
Doc2 (Dorsocross2) [DRSC22716] | Wolbachia per cell robust z, rep 1 = 0.57; Wolbachia per cell robust z, rep 2 = 0.193; Wolbachia per cell robust z, rep 3 = -0.533
Doc2 (Dorsocross2) [DRSC25293] | Wolbachia per cell robust z, rep 1 = 0.702; Wolbachia per cell robust z, rep 2 = -0.0798; Wolbachia per cell robust z, rep 3 = -0.598

Continued, starting with the last 4 of the part before.
Tsp42Ea (Tetraspanin 42Ea) [DRSC04982] | Wolbachia per cell robust z, rep 1 = -3.58; Wolbachia per cell robust z, rep 2 = -0.308; Wolbachia per cell robust z, rep 3 = -0.204
Tsp42Ea (Tetraspanin 42Ea) [DRSC06792] | Wolbachia per cell robust z, rep 1 = -0.494; Wolbachia per cell robust z, rep 2 = -1.81; Wolbachia per cell robust z, rep 3 = -0.871
Doc2 (Dorsocross2) [DRSC22716] | Wolbachia per cell robust z, rep 1 = 0.57; Wolbachia per cell robust z, rep 2 = 0.193; Wolbachia per cell robust z, rep 3 = -0.533
Doc2 (Dorsocross2) [DRSC25293] | Wolbachia per cell robust z, rep 1 = 0.702; Wolbachia per cell robust z, rep 2 = -0.0798; Wolbachia per cell robust z, rep 3 = -0.598
CG12259 [DRSC23281] | Wolbachia per cell robust z, rep 1 = -0.253; Wolbachia per cell robust z, rep 2 = -0.392; Wolbachia per cell robust z, rep 3 = 0.395
CG12259 [DRSC28180] | Wolbachia per cell robust z, rep 1 = 0.875; Wolbachia per cell robust z, rep 2 = -0.575; Wolbachia per cell robust z, rep 3 = 0.759
CG7912 [DRSC16343] | Wolbachia per cell robust z, rep 1 = 0.327; Wolbachia per cell robust z, rep 2 = 0.501; Wolbachia per cell robust z, rep 3 = 0.519
Teh4 (tipE homolog 4) [DRSC08457] | Wolbachia per cell robust z, rep 1 = 0.548; Wolbachia per cell robust z, rep 2 = 0.168; Wolbachia per cell robust z, rep 3 = 0.0572
chm (chameau) [DRSC03341] | Wolbachia per cell robust z, rep 1 = 0.839; Wolbachia per cell robust z, rep 2 = 0.253; Wolbachia per cell robust z, rep 3 = 0.54
chm (chameau) [DRSC24941] | Wolbachia per cell robust z, rep 1 = -1.25; Wolbachia per cell robust z, rep 2 = -0.279; Wolbachia per cell robust z, rep 3 = -1.26
lola (longitudinals lacking) [DRSC05220] | Wolbachia per cell robust z, rep 1 = -9.16; Wolbachia per cell robust z, rep 2 = -0.603; Wolbachia per cell robust z, rep 3 = 1.74
lola (longitudinals lacking) [DRSC05221] | Wolbachia per cell robust z, rep 1 = 1.17; Wolbachia per cell robust z, rep 2 = 0.552; Wolbachia per cell robust z, rep 3 = 0.343
lola (longitudinals lacking) [DRSC05222] | Wolbachia per cell robust z, rep 1 = 1.28; Wolbachia per cell robust z, rep 2 = -0.444; Wolbachia per cell robust z, rep 3 = 0.344
lola (longitudinals lacking) [DRSC05223] | Wolbachia per cell robust z, rep 1 = 0.123; Wolbachia per cell robust z, rep 2 = 0.152; Wolbachia per cell robust z, rep 3 = 2.13
lola (longitudinals lacking) [DRSC05224] | Wolbachia per cell robust z, rep 1 = 0.695; Wolbachia per cell robust z, rep 2 = 0.328; Wolbachia per cell robust z, rep 3 = 0.558
lola (longitudinals lacking) [DRSC06738] | Wolbachia per cell robust z, rep 1 = 0.54; Wolbachia per cell robust z, rep 2 = -0.0553; Wolbachia per cell robust z, rep 3 = -0.291
lola (longitudinals lacking) [DRSC06740] | Wolbachia per cell robust z, rep 1 = 0.487; Wolbachia per cell robust z, rep 2 = -0.46; Wolbachia per cell robust z, rep 3 = -0.674
lola (longitudinals lacking) [DRSC06741] | Wolbachia per cell robust z, rep 1 = 0.564; Wolbachia per cell robust z, rep 2 = 0.406; Wolbachia per cell robust z, rep 3 = -1.26
lola (longitudinals lacking) [DRSC07646] | Wolbachia per cell robust z, rep 1 = -0.283; Wolbachia per cell robust z, rep 2 = -0.515; Wolbachia per cell robust z, rep 3 = -1.39
lola (longitudinals lacking) [DRSC07647] | Wolbachia per cell robust z, rep 1 = 0.72; Wolbachia per cell robust z, rep 2 = -0.112; Wolbachia per cell robust z, rep 3 = 0.284
lola (longitudinals lacking) [DRSC27862] | Wolbachia per cell robust z, rep 1 = 1.18; Wolbachia per cell robust z, rep 2 = 2.17; Wolbachia per cell robust z, rep 3 = 1.87
